In US8501683B2 (priority 2008, dated 2013):
Square brackets hold non-standard residues; d marks the D form. Peptide text beside a SMILES is read from it. MeBmt = C/C=C/C[C@@H](C)[C@@H](O)[C@H](NC)C(=O)O; NMeI = CC[C@H](C)[C@H](NC)C(=O)O; NEtVal = CCN[C@H](C(=O)O)C(C)C; NMeL = CN[C@@H](CC(C)C)C(=O)O; NMeV = CN[C@H](C(=O)O)C(C)C; dHiv = CC(C)[C@@H](O)C(=O)O; NMeA = CN[C@@H](C)C(=O)O; dNMeA = CN[C@H](C)C(=O)O; Abu = CC[C@H](N)C(=O)O; Sar = CNCC(=O)O

What was measured:
[1] = tested on: hepatitis C virus genotype 1b Con1 replicon; conditions: ratio between CC50 and EC50, Huh 9-13 cells
[2] = tested on: Concanavalin-A-induced T-cell proliferation; assay: Concanavalin-A-induced T-cell proliferation assay (immunosuppression); assay type: cell-based; conditions: IC50 compound / IC50 CsA; fold less immunosuppressive than CsA
Protocol: To determine whether the cycloundecadepsipepide compounds of the present invention have a non-immunosuppression activity, experiments were carried out that compared the dose-dependent inhibition of Concanavalin-A-induced T-cell proliferation (see Table 2).
The method of the assays were performed as described by Dayton et al. (1992. Mol. Pharmacol. 41. 671-676) and Mishell et al. (1980. Cell proliferation in selected methods in cellular immunology, V, XXIX, W.H. Freeman Co., San Francisco, Calif. 153-160).

Compound	SI (selectivity index) [1]	IC50 ratio [2]
C/C=C/C[C@@H](C)[C@@H](O)[C@H]1C(=O)N[C@@H](CC)C(=O)N(C)[C@H](C)C(=O)N(C)[C@@H](C(C)C)C(=O)N[C@@H](CC(C)C)C(=O)N(C)[C@@H](CC(C)C)C(=O)NCC(=O)O[C@H](C(C)C)C(=O)N(C)[C@@H](CC(C)C)C(=O)N[C@@H](CC(C)C)C(=O)N(C)[C@@H](C(C)C)C(=O)N1C [(Ia), cyclo-(MeBmt-Abu-D-MeAla-MeVal-Leu-MeLeu-Gly-D-Hiv-MeLeu-Leu-MeVal)] (cyclo([Abu][dNMeA][NMeV]L[NMeL]G[dHiv][NMeL]L[NMeV][MeBmt]))	1791.8	–
C/C=C/C[C@@H](C)[C@@H](O)[C@H]1C(=O)N[C@@H](CC)C(=O)N(C)[C@H](C)C(=O)N(CC)[C@@H](C(C)C)C(=O)N[C@@H](CC(C)C)C(=O)N(C)[C@@H](CC(C)C)C(=O)N[C@@H](C)C(=O)O[C@H](C(C)C)C(=O)N(C)[C@@H](CC(C)C)C(=O)N[C@@H](CC(C)C)C(=O)N(C)[C@@H](C(C)C)C(=O)N1C [(Ib), cyclo-(MeBmt-Abu-D-MeAla-EtVal-Leu-MeLeu-Ala-D-Hiv-MeLeu-Leu-MeVal)] (cyclo(A[dHiv][NMeL]L[NMeV][MeBmt][Abu][dNMeA][NEtVal]L[NMeL]))	1398	–
C/C=C/C[C@@H](C)[C@@H](O)[C@H]1C(=O)N[C@@H](C(C)C)C(=O)N(C)[C@H](C)C(=O)N(C)[C@@H](C(C)C)C(=O)N[C@@H]([C@@H](C)CC)C(=O)N(C)[C@@H](CC(C)C)C(=O)NCC(=O)O[C@H](C(C)C)C(=O)N(C)[C@@H](CC(C)C)C(=O)N[C@@H](CC(C)C)C(=O)N(C)[C@@H](C(C)C)C(=O)N1C [(Ic), cyclo-(MeBmt-Val-D-MeAla-MeVal-Ile-MeLeu-Gly-D-Hiv-MeLeu-Leu-MeVal)] (cyclo(G[dHiv][NMeL]L[NMeV][MeBmt]V[dNMeA][NMeV]I[NMeL]))	4024.1	164
C/C=C/C[C@@H](C)[C@@H](O)[C@H]1C(=O)N[C@@H](CC)C(=O)N(C)[C@H](C)C(=O)N(C)[C@@H](C(C)C)C(=O)N[C@@H](CC(C)C)C(=O)N(C)[C@@H](CC(C)C)C(=O)N[C@@H](C)C(=O)O[C@H](C(C)C)C(=O)N(C)[C@@H](CC(C)C)C(=O)N[C@@H](CC(C)C)C(=O)N(C)[C@@H](C(C)C)C(=O)N1C [(Id), cyclo-(MeBmt-Abu-D-MeAla-MeVal-Leu-MeLeu-Ala-D-Hiv-MeLeu-Leu-MeVal)] (cyclo(A[dHiv][NMeL]L[NMeV][MeBmt][Abu][dNMeA][NMeV]L[NMeL]))	1745.9	–
C/C=C/C[C@@H](C)[C@@H](O)[C@H]1C(=O)N[C@@H](CC)C(=O)N(C)[C@H](C)C(=O)N(C)[C@@H](C(C)C)C(=O)N[C@@H](C(C)C)C(=O)N(C)[C@@H](C)C(=O)N[C@@H](C)C(=O)O[C@H](C(C)C)C(=O)N(C)[C@@H](CC(C)C)C(=O)N[C@@H](CC(C)C)C(=O)N(C)[C@@H](C(C)C)C(=O)N1C [(Ie), cyclo-(MeBmt-Abu-D-MeAla-MeVal-Val-MeAla-Ala-D-Hiv-MeLeu-Leu-MeVal)] (cyclo(A[dHiv][NMeL]L[NMeV][MeBmt][Abu][dNMeA][NMeV]V[NMeA]))	117.9	333
C/C=C/C[C@@H](C)[C@@H](O)[C@H]1C(=O)N[C@@H](C(C)C)C(=O)N(C)[C@H](C)C(=O)N(C)[C@@H](C(C)C)C(=O)N[C@@H](CC(C)C)C(=O)N(C)[C@@H](CC(C)C)C(=O)NCC(=O)O[C@H](C(C)C)C(=O)N(C)[C@@H](CC(C)C)C(=O)N[C@@H](CC(C)C)C(=O)N(C)[C@@H](C(C)C)C(=O)N1C [(If), cyclo-(MeBmt-Val-D-MeAla-MeVal-Leu-MeLeu-Gly-D-Hiv-MeLeu-Leu-MeVal)] (cyclo(G[dHiv][NMeL]L[NMeV][MeBmt]V[dNMeA][NMeV]L[NMeL]))	3236.8	1288
C/C=C/C[C@@H](C)[C@@H](O)[C@H]1C(=O)N[C@@H](CC)C(=O)N(C)[C@H](C)C(=O)N(C)[C@@H](C(C)C)C(=O)N[C@@H]([C@@H](C)CC)C(=O)N(C)[C@@H](CC(C)C)C(=O)NCC(=O)O[C@H](C(C)C)C(=O)N(C)[C@@H](CC(C)C)C(=O)N[C@@H](CC(C)C)C(=O)N(C)[C@@H](C(C)C)C(=O)N1C [(Ig), cyclo-(MeBmt-Abu-D-MeAla-MeVal-Ile-MeLeu-Gly-D-Hiv-MeLeu-Leu-MeVal)] (cyclo([Abu][dNMeA][NMeV]I[NMeL]G[dHiv][NMeL]L[NMeV][MeBmt]))	2045.2	–
C/C=C/C[C@@H](C)[C@@H](O)[C@H]1C(=O)N[C@@H](C(C)C)C(=O)N(C)[C@H](C)C(=O)N(CC)[C@@H](C(C)C)C(=O)N[C@@H](CC(C)C)C(=O)N(C)[C@@H](CC(C)C)C(=O)N[C@@H](C)C(=O)O[C@H](C(C)C)C(=O)N(C)[C@@H](CC(C)C)C(=O)N[C@@H](CC(C)C)C(=O)N(C)[C@@H](C(C)C)C(=O)N1C [(Ih), cyclo-(MeBmt-Val-D-MeAla-EtVal-Leu-MeLeu-Ala-D-Hiv-MeLeu-Leu-MeVal)] (cyclo(A[dHiv][NMeL]L[NMeV][MeBmt]V[dNMeA][NEtVal]L[NMeL]))	950	290
C/C=C/C[C@@H](C)[C@@H](O)[C@H]1C(=O)N[C@@H](CC)C(=O)N(C)[C@H](C)C(=O)N(C)[C@@H]([C@@H](C)CC)C(=O)N[C@@H](CC(C)C)C(=O)N(C)[C@@H](CC(C)C)C(=O)NCC(=O)O[C@H](C(C)C)C(=O)N(C)[C@@H](CC(C)C)C(=O)N[C@@H](CC(C)C)C(=O)N(C)[C@@H](C(C)C)C(=O)N1C [(Ii), cyclo-(MeBmt-Abu-D-MeAla-MeIle-Leu-MeLeu-Gly-D-Hiv-MeLeu-Leu-MeVal)] (cyclo([Abu][dNMeA][NMeI]L[NMeL]G[dHiv][NMeL]L[NMeV][MeBmt]))	623.8	–
C/C=C/C[C@@H](C)[C@@H](O)[C@H]1C(=O)N[C@@H](C(C)C)C(=O)N(C)[C@H](C)C(=O)N(C)[C@@H](C(C)C)C(=O)N[C@@H](C(C)C)C(=O)N(C)CC(=O)NCC(=O)O[C@H](C(C)C)C(=O)N(C)[C@@H](CC(C)C)C(=O)N[C@@H](CC(C)C)C(=O)N(C)[C@@H](C(C)C)C(=O)N1C [(Ik), cyclo-(MeBmt-Val-D-MeAla-MeVal-Val-Sar-Gly-D-Hiv-MeLeu-Leu-MeVal)] (cyclo(G[dHiv][NMeL]L[NMeV][MeBmt]V[dNMeA][NMeV]V[Sar]))	132	–
C/C=C/C[C@@H](C)[C@@H](O)[C@H]1C(=O)N[C@@H](CC)C(=O)N(C)[C@H](C)C(=O)N(CC)[C@@H](C(C)C)C(=O)N[C@@H](C(C)C)C(=O)N(C)[C@@H](CC(C)C)C(=O)N[C@@H](C)C(=O)N[C@H](C)C(=O)N(C)[C@@H](CC(C)C)C(=O)N(C)[C@@H](CC(C)C)C(=O)N(C)[C@@H](C(C)C)C(=O)N1C [Debio 025, [D-MeAla]^3-[EtVal]^4-CsA, reference compound]	73.5	–
